Measured values: article PMC8325870
The exact form of at least one protein or probe is not confirmed. The comparison behind a weaker result is the experiment's own reference, which may not be listed here.

Amino acid sequences for entries named in this document (tags omitted).
UniProt P31266, whole entry I187A/V189A: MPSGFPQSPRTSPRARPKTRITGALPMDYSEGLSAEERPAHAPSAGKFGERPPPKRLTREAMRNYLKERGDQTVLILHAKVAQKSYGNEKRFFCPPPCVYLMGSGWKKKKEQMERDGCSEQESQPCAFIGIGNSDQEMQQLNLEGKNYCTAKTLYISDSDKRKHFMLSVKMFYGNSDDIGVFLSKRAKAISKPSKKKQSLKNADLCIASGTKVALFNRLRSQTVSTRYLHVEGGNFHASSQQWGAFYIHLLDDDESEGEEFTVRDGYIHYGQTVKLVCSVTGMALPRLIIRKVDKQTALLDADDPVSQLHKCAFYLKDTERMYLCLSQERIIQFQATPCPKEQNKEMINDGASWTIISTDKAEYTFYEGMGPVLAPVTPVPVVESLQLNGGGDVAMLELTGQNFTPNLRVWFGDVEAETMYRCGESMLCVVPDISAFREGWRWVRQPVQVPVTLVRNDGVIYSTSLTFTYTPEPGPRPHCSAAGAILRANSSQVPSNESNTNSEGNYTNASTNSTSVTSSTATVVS

Target: RBPJ IV/AA I187A,V189A (UniProt P31266)
Experiment: EMSA
Details: slightly reduced vs wt; 10 mM Tris-HCl pH 7.5, 100 mM NaCl, 0.1 mM EDTA, 0.5 mM DTT, 4% glycerol, 10 ng poly(dI-dC), ~0.5 ng 32P-oligo, 2 or 4 ul reticulocyte lysate; temperature not stated; protein translated in vitro; protein details: Flag; label: 32P

CCTGGAACTATTTTCCCACGGTGCCCTTCCGCCCATTTTCCCACGAGTCG / CTCGCGACTCGTGGGAAAATGGGCGGAAGGGCACCGTGGGAAAATAGTTC [FO-233F/FO-233R (EBV TP-1 promoter, two RBPJ sites)]
binding result: binds more weakly
